IC50 data for one substance are collected here from PMC9003574 (ACS Pharmacology & Translational Science, 2022).

The target in test [1] is T1, SARS-CoV-2 nsp13 (Severe acute respiratory syndrome coronavirus 2, UniProt P0DTD1). Type of test: biochemical. To be noted: read-out: ATPase IC50; without BSA/TCEP, no nucleic acid.
Test [2] has as its target T1, SARS-CoV-2 nsp13. The note with it: read-out: unwinding IC50; without BSA/TCEP.

Read-outs that look alike come from different tables or passages of the source.

For the substance kaempferol-3-O-rutinoside, the IC50 in test [1] and in test [2] was above 30 µM each time.
